Anti-infective test results gathered from many reports (values: NIAID ChemDB through PubChem).

Shared fields: enzyme or target tests; agent: Pneumocystis carinii

ICn: concentration for n% inhibition. Conditions beyond the fields shown may differ between rows. Inhibition is in % at the dose shown (toxicity tests: loss of growth or viability). Two numbers with a dash give a range or band.

CN(C)CCCCCCCCCCOc1ccc(/C=C/C(=O)N(C)C)c(O)c1 ; target: Oxidosqualene cyclase ; read-out: IC50 ; value: 0.03 µM
COc1cc(N(OC)S(=O)(=O)c2ccc(N)cc2)ncn1 ; target: DHPS ; read-out: IC50 ; value: 34 µM
O=C(O)c1ccccc1 ; target: DHPS ; read-out: IC50 ; value: 170 µM
c1cc2[nH]c(-c3ccc4[nH]c5ccc(-c6nc7cc(C8=NCCN8)ccc7[nH]6)cc5c4c3)nc2cc1C1=NCCN1 ; target: Topoisomerase II ; read-out: IC50 ; value: 50 µM
CCCCc1ccc(Cc2nc3nc(N)nc(N)c3nc2Cc2ccc(CCCC)cc2)cc1 ; target: DHFR ; read-out: IC50 ; value: 3.9 µM
c1cc2c(cc1C1=NCCN1)[nH]c1cc(C3=NCCN3)ccc12 ; target: Topoisomerase II ; read-out: IC50 ; value: 25 µM
Nc1nc(N)c2c(OCC(F)(F)C(F)(F)F)cccc2n1 ; target: DHFR ; read-out: IC50 ; value: 54 µM
CN(C)CCCOc1ccc(C(=O)c2ccc(Cl)cc2)cc1 ; target: Oxidosqualene cyclase ; read-out: inhibition ; dose: 2 µM ; value: 70%
COc1cc(-c2coc3nc(N)nc(Cl)c23)cc(OC)c1OC ; target: DHFR ; read-out: IC50 ; value: >300 µM
COc1cc(NCc2csc3nc(N)nc(N)c23)cc(OC)c1OC ; target: DHFR ; read-out: inhibition ; dose: 10 µM ; value: <30%
Nc1nc2occ(-c3c(F)cccc3F)c2c(=O)[nH]1 ; target: DHFR ; read-out: IC50 ; value: 100 µM
Nc1cccc(C(=O)O)c1 ; target: DHPS ; read-out: IC50 ; value: 1700 µM
C=CC[N+](C)([O-])CCCCCCCCCCOc1ccc2ccc(=O)oc2c1 ; target: Oxidosqualene cyclase ; read-out: IC50 ; value: 0.05 µM
CC(=O)Nc1ccc(C(=O)O)cc1 ; target: DHPS ; read-out: inhibition ; dose: 1000 µM ; value: 80.9%
Nc1ccc(S(=O)(=O)N[n+]2ccccc2)cc1 ; target: DHPS ; read-out: IC50 ; value: 498.5 µM
c1cc2c(cc1C1=NCCCN1)c1cc(C3=NCCCN3)ccc1n2CC1CCCCC1 ; target: Topoisomerase II ; read-out: IC50 ; value: 1000 µM
CN(C)c1ccc(C(=O)O)cc1 ; target: DHPS ; read-out: IC50 ; value: >1000 µM
COc1ccc(OC)c(N(C)Cc2csc3nc(N)nc(N)c23)c1 ; target: DHFR ; read-out: inhibition ; dose: 10 µM ; value: <30%
C=CCN(C)CC#CCCCCOc1ccc2ccc(=O)oc2c1C ; target: Oxidosqualene cyclase ; read-out: IC50 ; value: 0.07 µM
Cc1cc(C)nc(/N=C(\N)Nc2ccc(S(=O)(=O)NC(=O)Nc3ccccc3)cc2)n1 ; target: DHPS ; read-out: IC50 ; value: 515.7 µM
CCCCCCCCCCCC1(C)N=C(N)N=C(N)N1c1ccc(Cl)cc1 ; target: DHFR ; read-out: IC50 ; value: 20.4 µM
N=C(N)c1ccc2[nH]c3ccc(C(=N)N)cc3c2c1 ; target: Topoisomerase II ; read-out: IC50 ; value: 100 µM
C=CCN(C)CCCCCCCCCCOc1ccc2ccc(=O)oc2c1 ; target: Oxidosqualene cyclase ; read-out: IC50 ; value: 0.18 µM
Nc1nc2occ(-c3ccc([N+](=O)[O-])cc3)c2c(=O)[nH]1 ; target: DHFR ; read-out: IC50 ; value: 75 µM
Nc1nc(N)c2nc(Cc3ccc(Cl)cc3)c(Cc3ccc(Cl)cc3)nc2n1 ; target: DHFR ; read-out: IC50 ; value: 5.9 µM
C=CCN(C)CCCCCCOc1ccc2ccc(=O)oc2c1 ; target: Oxidosqualene cyclase ; read-out: IC50 ; value: 0.15 µM
Nc1nc(N)c2nc(CCc3ccccc3)c(CCc3ccccc3)nc2n1 ; target: DHFR ; read-out: IC50 ; value: 4.9 µM
Nc1nc2occ(-c3ccccc3F)c2c(=O)[nH]1 ; target: DHFR ; read-out: IC50 ; value: 65 µM
N=C(N)c1ccc2c(c1)[nH]c1cc(C(=N)N)ccc12 ; target: Topoisomerase II ; read-out: IC50 ; value: 10 µM
CN(C)CCCCCCCCOc1ccc2ccc(=O)oc2c1 ; target: Oxidosqualene cyclase ; read-out: IC50 ; value: 1.04 µM
Nc1nc(N)c2c(Cl)c(Br)ccc2n1 ; target: DHFR ; read-out: IC50 ; value: 0.14 µM
Cn1c2ccc(C3=NCCN3)cc2c2cc(C3=NCCN3)ccc21 ; target: Topoisomerase II ; read-out: IC50 ; value: 5–10 µM